# PubChem BioAssay AID624099 | ICCB-Longwood | 2012
# Aim: 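Human genes that papillomavirus E2 requires to repress the HPV18 LCR promoter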 (primary screen)
# Cell system: human C33A cervical carcinoma cells (HPV-negative) stably expressing BPV1 E2 and an HPV18 LCR luciferase reporter
# Reagents: siRNA pool against human genes, 40 nM
# Time to read-out: 72 h
# Measurement: 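HPV18 LCR reporter light per well, converted to plate-wise z-scores that exclude control wells, and averaged over triplicate plates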
# Direction: mean z-score and z-score: higher = stronger reporter signal, weaker E2 silencing
# Active means: 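Hit if mean z-score reaches 2 and two or more of three replicate z-scores also reach 2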
# The deposit covers about 21,000 reagents; shown is an unselected part. 497 of all reagents (2.4%) were called active. 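Higher z means weaker E2 silencing; only reporter increases were scored, and knock-downs that hurt cell survival may mask genuine repressor factors.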 Reagents against one gene are numbered here. Reagent sequences are not shown.
target gene,pool no.,mean z-score,"z-score, replicate A","z-score, replicate B","z-score, replicate C",activity call
SNAP23,1,-0.51,-0.7,-0.38,-0.44,inactive
CDYL2,1,1.02,1.29,0.95,0.81,inactive
MYO10,1,-0.01,0.06,0.13,-0.23,inactive
PLPBP,1,-0.88,-0.88,-0.95,-0.8,inactive
CAMK2N2,1,-0.1,0.08,-0.34,-0.05,inactive
REEP3,1,-0.14,-0.01,-0.54,0.13,inactive
SNAPC4,1,-0.36,-0.26,-0.54,-0.29,inactive
JMJD6,1,-2.61,-2.52,-2.68,-2.63,inactive
IQCB2P,1,0.72,0.52,0.89,0.75,inactive
SND1,1,-0.52,-0.47,-0.7,-0.4,inactive
LACTB,1,0.31,0,0.47,0.47,inactive
VPS41,1,0.85,0.5,1.28,0.77,inactive
GRAPL-AS1,1,2.26,1.51,2.67,2.61,active
PXYLP1,1,-0.99,-0.78,-0.91,-1.29,inactive
KRTAP4-2,1,0.99,0.93,1.03,1,inactive
HIRIP3,1,0.1,-0.18,0.28,0.21,inactive
SNX2,1,0.38,0.35,0.35,0.45,inactive
DNAJC15,1,0.18,0.44,-0.06,0.17,inactive
LOC389602,1,0.24,0.59,0.01,0.14,inactive
LOC389602,2,0.12,0.11,0.08,0.18,inactive
CHMP1A,1,-1.01,-0.92,-1.03,-1.08,inactive
FRYL,1,-0.77,-0.85,-0.84,-0.64,inactive
NR1D1,1,0.36,0.24,0.46,0.39,inactive
SH3BGRL2,1,0.07,-0.12,0.16,0.17,inactive
HSD17B7P2,1,1.37,1.28,1.36,1.48,inactive
FGF1,1,-0.5,-0.47,-0.49,-0.54,inactive
FIMP1,1,0.77,0.75,0.42,1.12,inactive
BPIFB1,1,-3.12,-3.12,-3.4,-2.82,inactive
KANSL3,1,0.44,0.23,0.39,0.69,inactive
MT1A,1,1.25,1.52,1.56,0.68,inactive
ITSN1,1,1.76,1.6,1.6,2.09,inactive
DSG4,1,0.62,-0.07,0.82,1.1,inactive
PRODH,1,-1.2,-0.88,-1.22,-1.52,inactive
CALCB,1,1.65,1.57,1.91,1.46,inactive
C19orf12,1,-0.08,-0.14,-0.01,-0.09,inactive
LOC402252 (retired record),1,-0.06,-0.06,0.05,-0.18,inactive
SERF1B,1,-1.01,-1,-1.29,-0.74,inactive

Copied from the list:
SNAP23, z-score, replicate A → -0.7
SND1, z-score, replicate B: -0.7
Under “z-score, replicate A”, KANSL3 is entered as 0.23
Entry for LOC402252 (retired record) in “z-score, replicate B”: 0.05
Under “z-score, replicate B”, ITSN1 has 1.6

Continued:
target gene,pool no.,mean z-score,"z-score, replicate A","z-score, replicate B","z-score, replicate C",activity call
CSN1S1,1,1.16,1.33,1.07,1.09,inactive
CCDC102A,1,0.35,0.51,0.03,0.52,inactive
SUV39H2,1,-0.09,-0.03,-0.16,-0.07,inactive
PIGX,1,1.9,2.3,1.76,1.64,inactive
CSGALNACT1,1,-0.37,-0.41,-0.37,-0.34,inactive
TOM1L2,1,0.83,0.73,0.7,1.07,inactive
KRTAP13-4,1,-0.65,-0.73,-0.71,-0.5,inactive
PRL,1,-0.54,-0.57,-0.56,-0.48,inactive
PHF7,1,-0.71,-0.24,-0.97,-0.93,inactive
LOC342970 (retired record),1,0.27,0.41,0.14,0.26,inactive
NLK,1,1.6,0.97,2.02,1.82,inactive
FAM174C,1,-0.62,-0.49,-1.06,-0.32,inactive
RAPGEF5,1,0.16,0,0.25,0.23,inactive
DSCAML1,1,1.28,1.11,1.32,1.42,inactive
PHOX2A,1,0.22,0.41,0.29,-0.03,inactive
POLD3,1,2.97,3.21,2.57,3.12,active
MEN1,1,0.46,0.71,0.56,0.11,inactive
SPINT4,1,-1.01,-1.28,-0.9,-0.86,inactive
ALS2,1,-0.46,-0.6,-0.46,-0.34,inactive
CDCP1,1,-0.24,-0.72,0.02,-0.03,inactive
